Data source: PubChem BioAssay AID504761 (Drosophila RNAi Screening Center, 2011)
The screen tested about 22,000 reagents; shown is an unselected part of those that have a named target and a result. In the full data, 116 (0.52%) are marked active. 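Calls depend on retest data that are not deposited; infection was ranked per plate without normalising between plates; the unit of the infection score is not given.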 The raw values are shown without normalisation. Names joined by + are all predicted targets of the reagent. Not stated in the record: the amount of reagent, the time to read-out.

Assay: 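Genome-wide fly cell screen for genes dengue virus requires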 (primary screen)
Cell system: D.Mel-2 cells from Drosophila
Reagents: long dsRNA against Drosophila genes
Challenge: infection with dengue virus type 2; dose and infection time not stated
Detection: 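Per well on two replicate plates, imaging gave the percent of cells positive for viral envelope protein, ranked by infection, and a nuclear count of cells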
Direction: infection score: higher = more virus-infected cells; cell count: higher = more cells in the well
Rule for the call: 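Very low infection ranking in both replicate wells (chance probability at most 0.065), then a retest showing infection dropped 1.5-fold or more at p below 0.05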
Calls: active = confirmed: knock-down lowers infection; inactive = not picked or not confirmed

Gene	DRSC id	infection score, replicate 1	infection score, replicate 2	cell count, replicate 1	cell count, replicate 2	activity call
Cpr62Ba	DRSC08403	3.83	0.43	5947	6233	inactive
CG34330	DRSC20043	4.19	2.34	5089	6276	inactive
CG34330	DRSC29637	15.9	24.8	5504	5359	inactive
CG14321	DRSC14800	3.53	7.04	6742	5811	inactive
CG14321	DRSC26935	2.94	8.77	6159	6314	inactive
CG11563	DRSC14327	6.74	2.51	5892	6425	inactive
Ir10a	DRSC18891	0.63	3.11	6355	5989	inactive
Ir10a	DRSC19478		10.9	516	4047	inactive
Ir10a	DRSC19479	7.01	8.23	6109	6523	inactive
Set8	DRSC15473	20.8	25.8	5292	4648	inactive
Set8	DRSC27118	14.1	11.8	5386	5852	inactive
CG31810 + CG31809	DRSC25411	3.28	5.27	6900	6512	inactive
CG11248	DRSC11644	24.1	9.75	5951	6349	inactive
CG42404	DRSC15558	1.15	3.99	6462	6436	inactive
tacc	DRSC12019	3.27	1.72	6488	7094	inactive
tacc	DRSC12388	1.96	6.43	5983	6456	inactive
tacc	DRSC29052	18.3	12.9	4580	3126	inactive
Kaz	DRSC14637		13.6	288	4265	inactive
Hsc70-2	DRSC16710	9.62	12.5	5850	6325	inactive
Hsc70-2	DRSC28457	15.2	3.31	3680	967	inactive
ND-B17.2	DRSC00577	10.5	7.94	6135	6540	inactive
ND-B17.2	DRSC26940	2.18	8.48	6558	6228	inactive
CG18231	DRSC10307	7.5	7.31	6785	6742	inactive
CG13795	DRSC02299	6.21	1.99	5864	6470	inactive
Irp-1A	DRSC16719	7.74	3.41	6656	6597	inactive
eyg	DRSC23136	0.92	20.6	5853	2644	inactive
eyg	DRSC26636	6.35	6.6	6489	6557	inactive
Nup358	DRSC14410	3.1	2.66	5830	6229	inactive
Nup358	DRSC29772	13.8	20.5	1456	1468	inactive
ppk	DRSC03595	8.4	1.29	4653	6532	inactive
ppk	DRSC25361	6.16	6.41	6494	6490	inactive
CG9162 (retired record)	DRSC03151	5.83	0.53	5674	6549	inactive
CG12723	DRSC19499	1.54	3.91	6577	7029	inactive
CG12723	DRSC26290	7.33	9.19	6047	6310	inactive
CG7896	DRSC16335	1.37	7.94	6508	6775	inactive
Klp3A	DRSC18676		2.31	103	6705	inactive
Klp3A	DRSC21625	5.33	7.46	5811	5900	inactive
Src42A	DRSC04915	1.55	9.09	6367	6381	inactive
ArgRS	DRSC20138	0.37	1.97	3472	3601	inactive
Or82a	DRSC11996	1.6	2.92	6450	6230	inactive
CG10752	DRSC09799	6.33	5.82	6553	6287	inactive
Dbx	DRSC08271	3.23	3.02	6163	6416	inactive
Dbx	DRSC08394	3.25	4.05	6148	5831	inactive
Dbx	DRSC25311	6.29	7.96	5741	5914	inactive
Dbx	DRSC29604	4.4	25.4	727	4483	inactive
Calx	DRSC13457	7.58	2.93	5975	5162	inactive
Calx	DRSC13459	2.75	2.53	5808	5608	inactive
Calx	DRSC16599	1.71	1.78	6538	6728	inactive
Calx	DRSC21850	1.68	11.3	6746	3328	inactive
Calx	DRSC24386	2.73	3.57	6445	6311	inactive
CG4891	DRSC01936	17.5	7.05	6119	6507	inactive
CG4891	DRSC24341	1.83	2.33	6020	6179	inactive
alphaKap4	DRSC09823	0.34	2.36	5836	6010	inactive
Eig71Eg	DRSC11154	1.04	1.92	6035	5949	inactive
CG1208	DRSC12190	0.23	25.9	443	5165	inactive
comm	DRSC11336	0.45	1.15	6061	6184	inactive
comm	DRSC24259	1.71	2.47	5834	5795	inactive
Pkn + Tsen15	DRSC21969	3.98	0.82	5962	6380	inactive
Pkn + Tsen15	DRSC27376	25.6	28.5	6064	6339	inactive
Gpdh2	DRSC04346	16.1	19.2	4426	4959	inactive
CG6836	DRSC10722	5.75	4.04	6257	6418	inactive
CG6836	DRSC26906	6.53	2.39	6801	6814	inactive
Mvl	DRSC16752	3.66	7.78	5417	5735	inactive
boss	DRSC16916	1.59	1.59	6652	6926	inactive
boss	DRSC25941	3.81	3.43	6326	6102	inactive
CG5561	DRSC00688	1.34	1.14	6628	6644	inactive
RabX4	DRSC22189	1.34	4.37	6560	6769	inactive
RabX4	DRSC26360	5.83	8.74	5831	6445	inactive
Atpalpha	DRSC14119	3.84	13	6925	6512	inactive
Smg6	DRSC16029	5.97	3.65	5830	6034	inactive
Smg6	DRSC27703	5.11	5.26	6403	6383	inactive
ogre	DRSC18809	2.87	14.8	6476	6325	inactive
ogre	DRSC24730	16.9	2.45	5965	6420	inactive
atlas	DRSC04183	20.2	22.2	4835	4431	inactive

In a second layout: results already given
| Gene | DRSC id | infection score, replicate 1 | infection score, replicate 2 | cell count, replicate 1 | cell count, replicate 2 | activity call |
| --- | --- | --- | --- | --- | --- | --- |
| ND-B17.2 | DRSC00577 | 10.5 | 7.94 | 6135 | 6540 | inactive |
| ND-B17.2 | DRSC26940 | 2.18 | 8.48 | 6558 | 6228 | inactive |
| CG18231 | DRSC10307 | 7.5 | 7.31 | 6785 | 6742 | inactive |
| CG13795 | DRSC02299 | 6.21 | 1.99 | 5864 | 6470 | inactive |
| Irp-1A | DRSC16719 | 7.74 | 3.41 | 6656 | 6597 | inactive |
| eyg | DRSC23136 | 0.92 | 20.6 | 5853 | 2644 | inactive |
| eyg | DRSC26636 | 6.35 | 6.6 | 6489 | 6557 | inactive |
| Nup358 | DRSC14410 | 3.1 | 2.66 | 5830 | 6229 | inactive |
| Nup358 | DRSC29772 | 13.8 | 20.5 | 1456 | 1468 | inactive |
| ppk | DRSC03595 | 8.4 | 1.29 | 4653 | 6532 | inactive |
